The experiment has as its target SARS-CoV-1 Spike (Urbani) on pseudovirions (SARS-CoV-1), P59594. Put plainly: cell-based or functional assay.

B1: ShAb02-Foldon (ShAb02 VNAR-KESlinker-Foldon-3c-His8-Strep) (protein)
chain: ARVDQTPQTITKETGESLTINCVLRDSNCALASTDWYRKKSGSTNEESISKGGRYVETVNSGSKSFSLRINDLTVEDSGTYRCNAWDSWETRQLKCDYDVYGGGTVVTVNKESGSVSSEQLAQFRSGDGYIPEAPRDGQAYVRKDGEWVLLSTFLGRSLEVLFQGPGHHHHHHHHSAWSHPQFEK
B1: the pseudovirus neutralization IC50 was > 5 µg/mL and the pseudovirus neutralization IC80 was > 5 µg/mL.

B2: ShAb01-Foldon (ShAb01 VNAR-KESlinker-Foldon-3c-His8-Strep) (protein)
chain: ARVDQTPRSVTKETGESLTINCVLRDSNCALSSTHWYRKKSGSTNEERILQGRRYVETVNSGSKSFSLRINDLRVEDSGTYRCKVYWGNSWQDKFCPGLGSYEYGDGTAVTVNKESGSVSSEQLAQFRSGDGYIPEAPRDGQAYVRKDGEWVLLSTFLGRSLEVLFQGPGHHHHHHHHSAWSHPQFEK
Turning to B2, the pseudovirus neutralization IC50 turned out to be 0.404 µg/mL and the pseudovirus neutralization IC80 was 1.91 µg/mL.

For the origin of these results see US20230331823A1.
